Pooled drug test results. Numbers come from NIAID ChemDB, via PubChem.

All rows: target-level tests

Percent inhibition refers to the dose given; in toxicity tests it is the harm to the cells.

CC(C)(C)c1ccc(S(=O)(=O)Nc2cc(-c3ccccc3)sc2C(=O)O)cc1 ; endpoint: IC50 ; species: Hepatitis C virus ; protein: NS3 ATPase ; value: 5–20 µM
CN(CC(C)(CCN1CCC(N(CCO)C(=O)OCc2ccc([N+](=O)[O-])cc2)CC1)c1ccsc1)S(=O)(=O)c1ccccc1 ; endpoint: fold resistance ; protein: CCR5 ; method: radiometric ; mutations: CCR5-D276A ; value: 2
CN(C(=O)c1ccc(Cl)cc1)c1cc(-c2ccccc2)sc1C(=O)O ; endpoint: IC50 ; species: Hepatitis C virus ; protein: NS3 ATPase ; value: <5 µM
Cc1c(Sc2ccccc2)n(COCCO)c(=O)[nH]c1=O ; endpoint: IC50 ; species: HIV ; protein: Reverse transcriptase ; mutations: RT-K103N Y188L ; value: >5 µM
O=C(Nc1nnc(NCCc2cnc[nH]2)s1)c1c(Cl)cccc1Cl ; endpoint: IC50 ; species: Human cytomegalovirus ; protein: Polymerase ; value: <25 µM
CC1(C)N=C(N)N=C(N)N1c1cccc(CCCCc2ccc(S(=O)(=O)F)c(Cl)c2)c1.CCS(=O)(=O)O ; strain: RH ; endpoint: IC50 ; species: Toxoplasma gondii ; protein: DHFR ; value: 0.039 µM
O=c1cc(O)cc[nH]1 ; strain: RH ; endpoint: IC50 ; species: Toxoplasma gondii ; protein: Uracil phosphoribosyltransferase ; value: >2000 µM
O=C(O)C(Cl)(Br)P(=O)(O)O ; endpoint: IC50 ; species: Herpes simplex virus 1 ; protein: DNA polymerase ; value: >100 µM
O=C(O)c1sc(-c2ccccc2)cc1N(CC1CCCCNC1)C(=O)c1ccc(Cl)cc1Cl ; endpoint: IC50 ; species: Hepatitis C virus ; protein: NS3 ATPase ; value: <5 µM
CSC1=NC(=O)CC(=O)N1 ; strain: RH ; endpoint: IC50 ; species: Toxoplasma gondii ; protein: Uracil phosphoribosyltransferase ; value: >2000 µM
N#CCc1nc(N)nc(N)c1-c1ccc(Cl)cc1 ; strain: RH ; endpoint: IC50 ; species: Toxoplasma gondii ; protein: DHFR ; value: >100 µM
O=C1CCNC(=O)N1 ; strain: RH ; tested at: 2000 µM ; endpoint: inhibition ; species: Toxoplasma gondii ; protein: Uracil phosphoribosyltransferase ; value: <5%
O=C(O)C(F)(Br)P(=O)(O)O ; tested at: 100 µM ; endpoint: inhibition ; species: Herpes simplex virus 1 ; protein: DNA polymerase ; value: 71%
O=C(c1ccccc1Cl)N1C[C@H](CN2CCC(O)(CCCc3ccc(-c4nn[nH]n4)cc3)CC2)[C@@H](c2ccccc2)C1 ; endpoint: fold resistance ; protein: CCR5 ; method: radiometric ; mutations: CCR5-W86A ; value: 10.9
O=P(O)(O)C(Cl)(Cl)P(=O)(O)O ; endpoint: IC50 ; species: Epstein-Barr virus ; protein: DNA polymerase ; value: >100 µM
CCc1cnccn1 ; strain: RH ; tested at: 2000 µM ; endpoint: inhibition ; species: Toxoplasma gondii ; protein: Uracil phosphoribosyltransferase ; value: <5%
CS(=O)(=O)NN1C(=O)/C(=C\c2cc(F)c(F)cc2F)SC1=S ; endpoint: IC50 ; species: Hepatitis C virus ; protein: NS5B polymerase ; value: ≤30 µM
CN(Cc1cnc2nc(N)nc(N)c2n1)c1ccc(C(=O)N[C@H](CCC(=O)O)C(=O)O)cc1F ; strain: RH ; endpoint: IC50 ; species: Toxoplasma gondii ; protein: DHFR ; value: 0.0119 µM
N#Cc1ccc(C(=O)Nc2nnc(NCCN3CCOCC3)s2)cc1 ; endpoint: IC50 ; species: Human cytomegalovirus ; protein: Polymerase ; value: >25 µM
CC[C@H]1C(=O)Nc2ccc(F)cc2N1C(=O)OC(C)C ; endpoint: IC50 ; species: HIV ; protein: Reverse transcriptase ; method: nucleotide incorporation / radiometric ; mutations: RT-N137Y ; value: 0.008 µM
CN(C)c1ccc(/C=C2/SC(=S)N(N)C2=O)cc1 ; endpoint: IC50 ; species: Hepatitis C virus ; protein: NS5B polymerase ; value: >30 µM
Oc1cccc(O)c1 ; strain: RH ; tested at: 2000 µM ; endpoint: inhibition ; species: Toxoplasma gondii ; protein: Uracil phosphoribosyltransferase ; value: <5%
Cc1cn([C@H]2C=C[C@@H](COP(=O)(O)OP(=O)(O)OP(=O)(O)O)O2)c(=O)[nH]c1=O ; endpoint: fold resistance ; species: HIV ; protein: Reverse transcriptase ; method: nucleotide incorporation / radiometric ; mutations: RT-N137A ; value: 1.1
O=P(O)(O)C(Cl)(Br)P(=O)(O)O ; endpoint: IC50 ; species: Epstein-Barr virus ; protein: DNA polymerase ; value: >100 µM
O=C(O)c1sc(-c2ccccc2)cc1NS(=O)(=O)c1cnc(Cl)c(Br)c1 ; endpoint: IC50 ; species: Hepatitis C virus ; protein: NS3 ATPase ; value: >20 µM
CC(C)S(=O)(=O)NN1C(=O)/C(=C\c2ccc(Cl)c(Cl)c2)SC1=S ; endpoint: IC50 ; species: Hepatitis C virus ; protein: NS5B polymerase ; value: ≤30 µM
Nc1[nH]c(=S)[nH]c(=O)c1N=O ; strain: RH ; endpoint: IC50 ; species: Toxoplasma gondii ; protein: Uracil phosphoribosyltransferase ; value: >2000 µM
CCN(C(=O)OCc1ccccc1)C1CCN(CC[C@](C)(CN(C)S(=O)(=O)c2ccccc2)c2ccccc2)CC1 ; endpoint: IC50 ; protein: CCR5 ; method: radiometric ; mutations: CCR5-E283A ; value: >1 µM
O=C(O)c1sc(-c2ccccc2)cc1NS(=O)(=O)c1c(Cl)cccc1Cl ; endpoint: IC50 ; species: Hepatitis C virus ; protein: NS3 ATPase ; value: <5 µM
CC(F)(C(=O)O)P(=O)(O)O ; endpoint: IC50 ; species: Herpes simplex virus 1 ; protein: DNA polymerase ; value: >100 µM
CC(C)=CCOc1cc(NC(=S)c2ccoc2C)ccc1Cl ; endpoint: fold resistance ; species: HIV ; protein: Reverse transcriptase ; method: nucleotide incorporation / radiometric ; mutations: RT-N137H ; value: 0.44
O=P(O)(O)C(F)(Br)P(=O)(O)O ; endpoint: IC50 ; species: Epstein-Barr virus ; protein: DNA polymerase ; value: >100 µM
O=C(O)c1sc(-c2ccccc2)cc1N(Cc1ccc([N+](=O)[O-])cc1)C(=O)C1CC1 ; endpoint: IC50 ; species: Hepatitis C virus ; protein: NS3 ATPase ; value: 5–20 µM
O=C(Nc1nnc(NCc2ccc3c(c2)OCO3)s1)c1cc(F)cc(F)c1 ; endpoint: IC50 ; species: Human cytomegalovirus ; protein: Polymerase ; value: >25 µM
O=C1/C(=C\c2cc(F)c(F)cc2F)SC(=S)N1NS(=O)(=O)c1ccccc1 ; endpoint: IC50 ; species: Hepatitis C virus ; protein: NS5B polymerase ; value: ≤30 µM
NS(=O)(=O)c1ccc(CCNc2nnc(NC(=O)c3ccc(C(F)(F)F)cc3)s2)cc1 ; endpoint: IC50 ; species: Human cytomegalovirus ; protein: Polymerase ; value: >25 µM
CN(Cc1cnc2nc(N)nc(N)c2n1)c1ccc(C(=O)N[C@@H](CCC(=O)O)C(=O)O)c(Cl)c1 ; strain: RH ; endpoint: IC50 ; species: Toxoplasma gondii ; protein: DHFR ; value: 0.093 µM
Cc1cccc(-c2cc(N(C(=O)c3ccc(Cl)cc3Cl)C(C)C)c(C(=O)O)s2)c1 ; endpoint: IC50 ; species: Hepatitis C virus ; protein: NS3 ATPase ; value: <5 µM
O=C(O)CP(=O)(O)O ; endpoint: IC50 ; species: Herpes simplex virus 1 ; protein: DNA polymerase ; value: 1.3 µM
O=C1/C(=C\c2ccc(Cl)c(Cl)c2)SC(=S)N1NS(=O)(=O)c1cccc2ccccc12 ; endpoint: IC50 ; species: Hepatitis C virus ; protein: NS5B polymerase ; value: ≤30 µM
O=C(O)C(F)P(=O)(O)O ; tested at: 100 µM ; endpoint: inhibition ; species: Epstein-Barr virus ; protein: DNA polymerase ; value: 74%
O=c1ccn(C2CCCCC2)c(=O)[nH]1 ; strain: RH ; tested at: 2000 µM ; endpoint: inhibition ; species: Toxoplasma gondii ; protein: Uracil phosphoribosyltransferase ; value: <10%
CO[P@](=O)(c1cc(C)cc(/C=C/C#N)c1)c1c(C(N)=O)[nH]c2ccc(Cl)cc12 ; endpoint: IC50 ; species: HIV ; protein: Reverse transcriptase ; mutations: K103N ; value: 2.203 µM

A second listing of 5 rows from above:

smiles,strain,tested at,endpoint,species,protein,method,mutations,value
CS(=O)(=O)NN1C(=O)/C(=C\c2cc(F)c(F)cc2F)SC1=S,,,IC50,Hepatitis C virus,NS5B polymerase,,,≤30 µM
Cc1cccc(-c2cc(N(C(=O)c3ccc(Cl)cc3Cl)C(C)C)c(C(=O)O)s2)c1,,,IC50,Hepatitis C virus,NS3 ATPase,,,<5 µM
O=C(Nc1nnc(NCc2ccc3c(c2)OCO3)s1)c1cc(F)cc(F)c1,,,IC50,Human cytomegalovirus,Polymerase,,,>25 µM
Cc1c(Sc2ccccc2)n(COCCO)c(=O)[nH]c1=O,,,IC50,HIV,Reverse transcriptase,,RT-K103N Y188L,>5 µM
N#CCc1nc(N)nc(N)c1-c1ccc(Cl)cc1,RH,,IC50,Toxoplasma gondii,DHFR,,,>100 µM

Fold resistance has wild type as its base. Two numbers with a dash give a range or band. Blank or dashed fields: not listed here. ICn: concentration for n% inhibition. Neighbouring rows are from separate reports.